Data taken from article PMC7865074, “Role of PDZ-binding motif from West Nile virus NS5 protein on viral replication” (Scientific Reports, 2021).

Target: T1, biotinylated WNV NS5 PBM peptide (West Nile virus, also: biotinyl group, end not given here)
T1 construct: bait of the holdup assay; also called 13-mer peptide; source: synthetic peptide (solid phase, Fmoc; Proteogenix)
T1 peptide: RYEDTTLVEDTVL
Assay: holdup assay (automated high-throughput chromatography); biotinylated NS5 PBM peptide as bait against 259 human PDZ domains expressed in E. coli; read-out binding intensity (BI), mean of replicates; BI threshold 0.2 for a significant interaction

B1: Serine protease HTRA1, PDZ domain (holdup construct) (domain or fragment)
chain: not shown
notes: source: E. coli, PDZome V.2 library, high-throughput expression
- BI (holdup binding intensity): 0.3

Ends that are not written are not given here.
